Results of unrelated studies side by side (data: NIAID ChemDB).

All rows: host cell toxicity; cell line: MT-4; measure: CC50

Rows are shuffled and stem from different studies. An empty or dashed field is not shown. CCn: concentration that lowers growth or viability of the cells by n%.

structure,read by,result
Nc1ncnc2c1ncn2CCOCP(=O)(O)O,MTT,>100 µM
c1ccc(CNCc2ccc(CN3CCCNCCNCCCNCC3)cc2)nc1,-,>300 µM
C/C(=N\NC(N)=S)c1nc2ccc(Cl)cc2[nH]1,MTT,2.58 µg/mL
Cc1cn([C@H]2C[C@H](F)[C@@H](CO)O2)c(=O)[nH]c1=O,-,0.1 µM
CCOP(=O)(OCC)C(F)(F)C[C@@]1(O)CO[C@@H](n2cnc3c(N)ncnc32)C1,MTT,>100 µM
NC1=Nc2c(ncn2CCCCC(F)(F)P(=O)(O)O)C(=O)C1,MTT,>500 µM
C=Cc1s/c(=N\S(=O)(=O)c2cccc([N+](=O)[O-])c2)n(C)c1C,MTT,4.4 µM
O=c1ccn([C@@H]2CC(CO)(CO)CS2)c(=O)[nH]1,-,>100 µg/mL
Cc1cn([C@H]2C[C@H](F)[C@@H](CO)O2)c(=O)[nH]c1=O,-,0.197 µM
CCc1c(Cc2c(F)cccc2F)nc(SCc2ccc(OC)cc2)[nH]c1=O,-,>62.19 µM
CCOP(=O)(OCC)C(F)(F)C[C@@]1(O)CO[C@@H](n2ccc(N)nc2=O)C1,MTT,90 µM
O=c1[nH]c(=O)n([C@H]2C[C@H](F)[C@@H](CO)O2)cc1Cl,-,>500 µM
Oc1cc(O)cc(/C=C/c2ccc(O)c(O)c2)c1,MTT,>333 µM
N#C/C=C1/c2cc(S)cc([N+](=O)[O-])c2-c2c1cc(S(=O)(=O)NCc1ccccc1)cc2[N+](=O)[O-],MTT / absorbance,92.78 µM
Nc1ncnc2c1ncn2[C@H]1CC[C@@H](CO)O1,trypan blue,213 µM
O=c1ccn([C@H]2C[C@H](F)[C@@H](CO)O2)c(=O)[nH]1,-,16 µM
COC[C@@H](c1ccc(C(F)(F)F)cc1)N1CCN(C2(C)CCN(C(=O)c3c(C)ncnc3C)CC2)C[C@@H]1C,MTT,>5 µM
Nc1ncnc2c1ncn2CCOCP(=O)(O)O,MTT,187 µM
Cc1cn([C@H]2C[C@H](N=[N+]=[N-])[C@@H](CO)O2)c(=O)[nH]c1=O,MTT / absorbance,9.4 µM
CC(=O)Oc1ccc(CSc2nc(Cc3c(Cl)cccc3Cl)c(C)c(=O)[nH]2)cc1,-,>55.68 µM
CN(CCc1c[nH]c2ccccc12)[C@@H]1CC2=CC(=O)O[C@@]23C[C@@H]1N1CCC[C@@H]13,MTT / absorbance,>100 µM
O=c1ccn([C@H]2C[C@]3(CO2)CC(F)(F)P(=O)(O)O3)c(=O)[nH]1,MTT,>100 µM
C1CNCCNCCCN(CCCN2CCCNCCNCCCNCC2)CCNC1,-,>300 µM
Cc1cn([C@H]2C[C@H](N=[N+]=[N-])[C@@H](CO)O2)c(=O)[nH]c1=O,-,20 µM
CC1(C)S[C@H]([C@@H](CO)NC(=O)Cc2ccccc2)N[C@H]1C(=O)NCCNC(=O)[C@@H]1N[C@@H]([C@@H](CO)NC(=O)Cc2ccccc2)SC1(C)C,-,>100 µM
O=c1ccn([C@H]2CC[C@@H](CO)O2)c(=O)[nH]1,-,>625 µM
CCc1c(C(C)c2c(F)cccc2F)nc(SC/C=C/c2ccc(OC)cc2)[nH]c1=O,-,5.54 µM
Oc1ccc([C@H]2Oc3cc(O)ccc3[C@@H](c3c(O)cc(O)c4c3O[C@H](c3ccc(O)cc3)[C@H](O)C4)[C@@H]2O)cc1,MTT,>333 µM
O=c1[nH]c(=O)n([C@H]2C[C@H](F)[C@@H](CO)O2)cc1Br,-,95 µM
COc1ccc(/C=C/Sc2nc(Cc3c(Cl)cccc3Cl)c(C)c(=O)[nH]2)cc1,-,>57.74 µM
CCNC(=O)[C@@H](NC(=O)c1c(-c2ccccc2)noc1C)[C@@H]1N[C@@H](C(=O)NCCNC(=O)[C@@H]2N[C@@H]([C@H](NC(=O)c3c(-c4ccccc4)noc3C)C(=O)NCC)SC2(C)C)C(C)(C)S1,-,>100 µM
COc1ccc(/C=C/Sc2nc(C(C)c3c(Cl)cccc3Cl)c(C)c(=O)[nH]2)cc1,-,>55.93 µM
CC(C)c1cn(C)/c(=N/S(=O)(=O)c2cccc([N+](=O)[O-])c2)s1,MTT,>25 µM
NC1=Nc2c(ncn2CCCCCP(=O)(O)O)C(=O)C1,MTT,>320 µM
CCc1cn([C@H]2CC[C@@H](CO)O2)c(=O)[nH]c1=O,-,>625 µM
Cc1nc2ccccc2c(-c2ccc3c4c(cccc24)C2CC32)c1[C@H](OC(C)(C)C)C(=O)O,ATP,31.8 µM
Cc1cn([C@H]2C[C@H](N=[N+]=[N-])[C@@H](CO)O2)c(=O)[nH]c1=O,MTT,>1 µM
CCCCNC(=S)N/N=C(\C)c1nc2ccc(Cl)cc2[nH]1,MTT,1.03 µg/mL
[N-]=[N+]=N[C@H]1C[C@H](n2ccc(N)nc2=O)O[C@@H]1CO,-,160 µM
Cc1cn([C@H]2C[C@H](N=[N+]=[N-])[C@@H](CO)O2)c(=O)[nH]c1=O,-,2.1 µg/mL
CC1(C)S[C@H]([C@H](NC(=O)Cc2ccccc2)C(=O)N2CCCCC2)N[C@H]1C(=O)NCCNC(=O)[C@@H]1N[C@@H]([C@H](NC(=O)Cc2ccccc2)C(=O)N2CCCCC2)SC1(C)C,-,>100 µM
CCOP(=O)(OCC)C(F)(F)C[C@@]1(O)CO[C@@H](n2ccc(=O)[nH]c2=O)C1,MTT,>100 µM
Cc1cn([C@H]2C[C@H](N=[N+]=[N-])[C@@H](CO)O2)c(=O)[nH]c1=O,-,>500 µM
Cc1cn([C@H]2C[C@]3(CO2)CC(F)(F)P(=O)(O)O3)c(=O)[nH]c1=O,MTT,80 µM
CC(C)Cc1c(C(C)C)s/c(=N\S(=O)(=O)c2cccc([N+](=O)[O-])c2)n1C,MTT,21.4 µM
COc1ccc(N(C)C(=O)[C@@H]2Cc3cccc(c3)C/C=C\c3[nH]c4ccc(F)cc4c3CC(=O)N2)cc1,ATP / luminescence,>44.3 µM
Cc1c(C(C)(C)C)s/c(=N\S(=O)(=O)c2cccc([N+](=O)[O-])c2)n1C,MTT,>25 µM
O=C1C=C2C=C[C@@H]3C[C@@]2(O1)[C@H]1CCCCN31,MTT / absorbance,>100 µM
CC1(C)S[C@H]([C@H](NC(=O)Cc2ccccc2)C(=O)NCc2ccccn2)N[C@H]1C(=O)NCCNC(=O)[C@@H]1N[C@@H]([C@H](NC(=O)Cc2ccccc2)C(=O)NCc2ccccn2)SC1(C)C,-,>100 µM
COc1ccc(/C=C/CSc2nc(Cc3c(Cl)cccc3Cl)c(C)c(=O)[nH]2)cc1,-,0.96 µM

Repeating the first 6 entries:

structure	read by	result
Nc1ncnc2c1ncn2CCOCP(=O)(O)O	MTT	>100 µM
c1ccc(CNCc2ccc(CN3CCCNCCNCCCNCC3)cc2)nc1	-	>300 µM
C/C(=N\NC(N)=S)c1nc2ccc(Cl)cc2[nH]1	MTT	2.58 µg/mL
Cc1cn([C@H]2C[C@H](F)[C@@H](CO)O2)c(=O)[nH]c1=O	-	0.1 µM
CCOP(=O)(OCC)C(F)(F)C[C@@]1(O)CO[C@@H](n2cnc3c(N)ncnc32)C1	MTT	>100 µM
NC1=Nc2c(ncn2CCCCC(F)(F)P(=O)(O)O)C(=O)C1	MTT	>500 µM